From patent US6323185
For at least one entry, the source does not settle the construct or the ends of the probe.

Target: HIV-1 integrase IN1-55 zinc finger domain (HIV-1) (UniProt P12497)
Experiment: binding assay
Conditions: UV crosslinking, binds only with Zn plus Mn or Mg, no binding with Zn alone, purified recombinant protein, label: 5'-32P

Sequence: GTGTGGAAAATCTCTAGCAGT (double strand) [HIV-1 U5 LTR 21-mer duplex (AE118/AE117)]
- binding result: binds
